Results of unrelated studies side by side (data: NIAID ChemDB).

All rows: tests in culture; species: HIV-1; cells: AA5; measure: EC50

ECn: concentration that inhibits the pathogen or its effect by n%. Lines come from different laboratories, so protocols vary.

Cc1occc1C(=S)Nc1ccc(Cl)c(/C=N/OC(C)(C)C)c1 ; strain: IIIB ; method: cytopathic effect / XTT ; result: 1.9 µM
O=[N+]([O-])c1ccccc1S(=O)(=O)c1ccccc1 ; strain: IIIB ; method: cytopathic effect / XTT ; result: 2.13 µM
Cc1ccnc2c1NC(=O)c1cccnc1N2C1CC1 ; strain: IIIB ; method: cytopathic effect / XTT ; result: 0.07 µM
Cc1cn([C@H]2C[C@H](N=[N+]=[N-])[C@@H](CO)O2)c(=O)[nH]c1=O ; strain: RF ; method: p24 / RT activity ; result: 0.001 µM
CNc1ccc(Cl)cc1S(=O)(=O)c1ccccc1[N+](=O)[O-] ; strain: IIIB ; method: XTT ; result: 0.06 µM
Cc1ccnc2c1NC(=O)c1cccnc1N2C1CC1 ; strain: IIIB ; method: cytopathic effect / XTT ; result: 0.7 µM
O=C(O)c1cc(O)cc(O)c1N=Nc1ccc(/C=C/c2ccc(N=Nc3c(O)cc(O)cc3C(=O)O)cc2S(=O)(=O)O)c(S(=O)(=O)O)c1 ; strain: IIIB ; method: cytopathic effect / XTT ; result: 3 µg/mL
O=S1(c2ccccc2)=NC(=S)Nc2ccccc21 ; strain: IIIB ; method: cytopathic effect / XTT ; result: 2.88 µM
C/C=C/CSc1cc(NC(=S)c2ccsc2C)ccc1Cl ; strain: IIIB ; method: cytopathic effect / XTT ; result: 0.2 µM
Cc1cn([C@H]2C[C@H](N=[N+]=[N-])[C@@H](CO)O2)c(=O)[nH]c1=O ; strain: IIIB ; method: XTT ; result: 0.1 µM
O=S1(c2ccccc2)=NC(=S)Nc2ccccc21 ; strain: RF ; method: cytopathic effect / XTT ; result: 2.88 µM
Cc1ccnc2c1NC(=O)c1cccnc1N2C1CC1 ; strain: IIIB ; method: cytopathic effect / XTT ; result: 0.7 µM
c1ccc2c(c1)sc1nccn12 ; strain: IIIB ; method: cytopathic effect / XTT ; result: 1.35 µM
Cc1ccnc2c1NC(=O)c1cccnc1N2C1CC1 ; strain: IIIB ; method: cytopathic effect / XTT ; result: 0.7 µM

Repeating the final 2 entries:

smiles | strain | method | result
c1ccc2c(c1)sc1nccn12 | IIIB | cytopathic effect / XTT | 1.35 µM
Cc1ccnc2c1NC(=O)c1cccnc1N2C1CC1 | IIIB | cytopathic effect / XTT | 0.7 µM